The labels stand for the following.
B1: BD55-6558 (protein)
chain 1: QVQLQQWGAGLLRPSETLSLTCTLSDGSFSGYYWNWVRQSPGKGLEWIGDIDLAGENYNPSLKGRVTMSIDASKNHFSLRLSSVTAADTGVYYCARAPNLGWFGPKQGAFDIWGLGTVVIVSS
chain 2: DIVMTQSPDSLAVSLGERATINCKSSQSLLYSSNNKNYLAWFQQKPGQPPNLLIYWASTRESGVPDRFSGSGSGTEFTLTISSLQAEDVAVYFCQQYYSPPLTFGGGTKVEIK
B2: BD55-6555 (protein)
chain 1: QVQLQESGPGLVKPSETLSLTCTVSNGSISSYYWSWIRQPPGKGLEWIGYIYFSGHTNYNPSLKSRVTLSVDTSKNQFSLKLSSVTAADTAVYYCAREGAGKTNHDFWSGYSYYYYHGMDVWGQGTTVTVSS
chain 2: QSVLTQPPSVSGAPGQRVTVSCTGSSSNIGAGYDVHWYQQLPGTAPKLLIYGNTNRPSGVPDRFSGSRSDTSASLAITGLQAEDEADYYCQSYDSSLSVRVFGGGTRLTVL
B3: BD55-6560 (protein)
chain 1: QVQLRESGPGLVKPSETLSLTCTVSGDSMSSYYWSWIRQSAGKGLEWIGRIHPSGATNHKSSLRGRVTMSVDTSKNQFSLQLRSVTAADTAVYYCARGGCSSTSCFGFYFYAMDVWGQGTTVTVSS
chain 2: DIQMTQSPSSLSASVGDRVTITCQASQDISNFLNWYQQRPGKAPKLLISAASNLETGVPSRFSGSGSGTDFTFTISSLLPEDFGTYYCQQYADLPLFGGGTKVE
B4: BD55-6574 (protein)
chain 1: EVQLVQSGAEVKKPGESLKISCKGSGFSFTHYWIGWVRQVPGQGLEWMGIIYPDDSDTTYSPSFQGRITISADKSSSTAYLQWSSLKASDTAIYYCGFTMTTVGGRYFDFWGQGTLVTVSS
chain 2: IQMTQSPSTLSASVGDRVTITCRASQSISTSLAWYQQKPGKAPSLLIYKTSTLESGVPSRFSGSGSGTEFTLTISSLRPDDFATYHCQQYSAFPLTFGQGTKVEIK
B5: BD55-1266 (protein)
chain 1: QLQLLQSGAEVKKPGSSVKVSCKASGGTFGSHTISWVRQAPGQGLEWMGGIIPVSGKPNYAQKFQGRVTITADESTTTSYMELRSLRSEDTAMYFCSRLDTSGWYTGDTFDLWGQGTMVTVSS
chain 2: DIQMTQSPASLSASVGDRVTITCRASQNIGIYLNWYQQKPGKAPKLLIYAAYSLQSGVPSRFSGSGSATEFTLTITSLQPDDFATYYCQQSYPAPPLTFGQGTRLEVK
B6: BD55-6580 (protein)
chain 1: QITLKESGPTLVKPTQTLTLTCTFSGFSLATSGVGVGWIRQPPGKALEWLGIIYWNDDNRYSPSLRNRLTITKATSKNQVVLTMTNLDPVDTATYFCAHIPRHTYVLNQDNWFDPWGQGTLVTVSS
chain 2: SYELTQPPSVSVSPGQTARITCSGDAWPNQYAYWYQQKPGQAPILVIYKDTQRPSGIPERFSGSSSGTTVTLTISGVQAEDEADYYCQSADSSDVVFGGGTRLTVL
B7: BD55-6534 (protein)
chain 1: EVQLVQSGAEVKKPGESLKISCKGSENSFTIHWIGWVRQLPGKGLEWMGVIFPGDSDTRYSPSFQGQVTISADKSISTAYLQWSSLKASDTAMYYCASRTWGQYSYGMDIWGQGTSVTVS
chain 2: DIQMTQSPSSVSASVGDRVTITCRASQGIGNWLAWYQQKPGKAPELLIYAASTLQSGVPSRFSGSGSGTDFTLTISSLQPEDFAAYYCQQANSFPPTFGQGTRLEIK
B8: BD55-6564 (protein)
chain 1: QVQLVQSGAEVKKTGSSVKVSCKASGGTFSTYAITWVRQAPGQGLEWMGKIIPIVGKAHYAQEFQGRVTITADKSTSTVYMELSSLRLEDTAVYYCARENKGGEDTQKYSGYDLLEGGWCDPWGQGTLVIVSS
chain 2: DIVMTQSPDSLAVSLGERATINCKSSQSVLYSSNIENYLAWYQQKPGQPPKLLIYWASTRESGVPDRFTGSGSGTDFTLTISSLQAEDVAVYYCQQYYSTPPTFGQGTKVEIK
B9: BD55-6569 (protein)
chain 1: QLQLQESGPGLVKPSEALSLTCTVSGGAISSSIDYWGWIRQPPGKGLEWIGSLYNGGNTYYNPSLKSRLTISVDMSKDQFSLKLSSVTAADTAVYYCARLAYDGSLDDHWGQGTLVTVSS
chain 2: QSVLTQPPSASGTPGQRVTISCSGRSSNIGSNYVYWYHQLPGMAPKLLIYRNNLRPSGVPDRFSGSKSGASASLAISGLRSEDEAAYYCAAWDDSLSGVVFGGGTKLTVL
B10: BD55-6531 (protein)
chain 1: QVQLVQSGAEVKKPGSSVKVSCTASGDTFSSYSITWVRLAPGQGLEWMGRIIPKLGITNYAQKFQGRVTIIADESTNTAYMELSSLRSEDTALYYCARDPRPLIPADRNHGMDVWGQGTTVTVSS
chain 2: DTVMTQSPLSLPVTPGEPASISCRSSQSLLQSNGYKYLDWYLQKSGQSPQLLIYLGSARASGVPDRFSGSGSGTDFTLNISRVEAEDVGVYYCMQALQIPFTFGQGTKLEIK
B11: BD55-6551 (protein)
chain 1: QITLKESGPALVKPTQTLTLTCTFSGFSLNTDRVGVGWIRQPPGKALEWLALIYWDDDKRYSPSLKSRLTITKDTSKNQVVLTMTNMDPVDTATYYCAHRGKHGYSYGPGYNWFDPWGQGTLVSVSS
chain 2: QSVLTQPPSVSEAPRQRVTISCSGSSSNIGNNAVNWYQQVPGKAPKLLIYNDDLLPSGVSDRFSGSKSGTSASLAISGLQSEDEADYYCATWDDILNGPVFGGGTKLTVL
B12: BD55-6563 (protein)
chain 1: QVQLRQWGAGLLKPSETLSLTCGVYGGSLTGNYWSWIRQPPGKGLEWIGEINHIGSTDYNPSLQSRVTMSVDTSKNQFSLKLISVTADDTAVYYCARLPSRIGSSWPSGNYYYNGVDVWGQGATVTVSS
chain 2: DIVMTQSPDSLAVSLGERATISCKSTHDLLHSSNNKNYLAWYLHKPGQPPKVLIYWGSARGSGVPDRFSGSGSGTDFTLTISGLQAEDVAVYYCQQYYSSPYTFGQGTKLEIK
B13: BD55-6540 (protein)
chain 1: QLQLQQSGPGLVKPSETLSLTCTVSGGSISSDYWTWIRQPPGKGLEWIGYLYYVGITNYNPSLKSRVTISLDTSKNQFSLTLSSVTAADTAVYFCARGRGRYLDDPYYYGMDVWGQGTTVTVSS
chain 2: QSVLTQPPSASGTPGQRVAIPCSGSTSNIGSNSVNWYQQVPGTAPKLLIYSNNERPSGVPDRFSGSKSGTSASLAISGLQSEDEADYYCASWDDSLDGRGVFGGGTRLTVL

Human monoclonal antibodies against the spike receptor-binding domain (heavy:light variable regions). IC50 against pseudoviruses bearing the spike of naturally observed variants; lower = stronger; >10 µg/ml means not reached at the top dose. No active / inactive call. The stated detection limit is 0.0005 µg/ml; values near or below 0.001 µg/ml lie at the floor of the assay.

The first assay concerns the target SARS-CoV-2 Omicron BA.1 spike pseudovirus. The assay can be described thus: pseudovirus neutralization IC50; higher = weaker neutralization. How it is done:
(§1)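 Single-round VSV luciferase pseudovirus mixed with antibody dilutions for 1 h and put on Huh-7 cells for about a day; IC50 from the dose curve.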
Turning to B1, the “pseudovirus neutralization IC50” value was above 10 µg/mL.
Still for that read-out and setting: the same measure for B2: above 10 µg/mL.
On the same count and under the same terms, the same measure for B3: above 10 µg/mL.
Still for that read-out and setting: the same measure for B4: above 10 µg/mL; for B5: 1.91 µg/mL; for B6: above 10 µg/mL.
In the case of B7, the “pseudovirus neutralization IC50” value was above 10 µg/mL.
On the same count and under the same terms, the same measure for B8: above 10 µg/mL.
Same read-out and setting: the same measure for B9: above 10 µg/mL; for B10: 0.0815 µg/mL; for B11: above 10 µg/mL.
Same read-out and setting: to B12 belongs above 10 µg/mL; to B13, above 10 µg/mL.

The target in the next assay is SARS-CoV-2 Omicron BA.2 spike pseudovirus. Described as above. How it is done: as §1
Consider B1, for which the “pseudovirus neutralization IC50” value is above 10 µg/mL.
Same read-out and setting: the same measure for B2: above 10 µg/mL; for B3: above 10 µg/mL; for B4: above 10 µg/mL.
With B5, the “pseudovirus neutralization IC50” value turned out to be 1.29 µg/mL.
On the same count and under the same terms, to B6 belongs above 10 µg/mL.
For B7, the “pseudovirus neutralization IC50” value was above 10 µg/mL.
Still for that read-out and setting: the same measure for B8: above 10 µg/mL; for B9: above 10 µg/mL.
Turning to B11, the “pseudovirus neutralization IC50” value is above 10 µg/mL.
Same read-out and setting: the same measure for B12: above 10 µg/mL; for B13: above 10 µg/mL.

The target in the next assay is SARS-CoV-2 Omicron BA.2.75 spike pseudovirus. Described as above. Here is the method:
as §1
Take B1: the “pseudovirus neutralization IC50” value is above 10 µg/mL.
Take B2: the “pseudovirus neutralization IC50” value was above 10 µg/mL.
With B3, the “pseudovirus neutralization IC50” value was above 10 µg/mL.
Regarding B4, the “pseudovirus neutralization IC50” value is above 10 µg/mL.
On the same count and under the same terms, the same measure for B5: 1.74 µg/mL; for B6: above 10 µg/mL; for B7: above 10 µg/mL.
Same read-out and setting: to B8 belongs above 10 µg/mL.
Regarding B9, the “pseudovirus neutralization IC50” value was above 10 µg/mL.
In the case of B11, the “pseudovirus neutralization IC50” value was above 10 µg/mL.
Still for that read-out and setting: the same measure for B12: above 10 µg/mL; for B13: above 10 µg/mL.

The next assay concerns the target SARS-CoV-2 Omicron BA.5 spike pseudovirus. The description is as above. How it is done:
as §1
Take B1: the “pseudovirus neutralization IC50” value is above 10 µg/mL.
Still for that read-out and setting: the same measure for B2: above 10 µg/mL; for B3: above 10 µg/mL; for B4: above 10 µg/mL.
The same measure, in the same setting: the same measure for B5: 8.7 µg/mL.
Still for that read-out and setting: to B6 belongs above 10 µg/mL; to B7, above 10 µg/mL.
On to B8, for which the “pseudovirus neutralization IC50” value was above 10 µg/mL.
Still for that read-out and setting: the same measure for B9: above 10 µg/mL; for B11: above 10 µg/mL.
On the same count and under the same terms, to B12 belongs above 10 µg/mL.
On the same count and under the same terms, to B13 belongs above 10 µg/mL.

In the next assay the target is SARS-CoV-2 Omicron BQ.1.1 spike pseudovirus. The assay is described as above. How it is done:
as §1
On to B1, for which the “pseudovirus neutralization IC50” value was above 10 µg/mL.
The same measure, in the same setting: the same measure for B2: above 10 µg/mL; for B3: above 10 µg/mL.
Still for that read-out and setting: the same measure for B4: above 10 µg/mL; for B5: above 10 µg/mL.
For B6, the “pseudovirus neutralization IC50” value is above 10 µg/mL.
On the same count and under the same terms, the same measure for B7: above 10 µg/mL.
As for B8, the “pseudovirus neutralization IC50” value was above 10 µg/mL.
Still for that read-out and setting: the same measure for B9: above 10 µg/mL; for B10: 1.54 µg/mL; for B11: above 10 µg/mL.
For the molecule B12, the “pseudovirus neutralization IC50” value is above 10 µg/mL.
Same read-out and setting: the same measure for B13: above 10 µg/mL.

The next assay has as its target SARS-CoV-2 Omicron XBB spike pseudovirus. Described as above. How it is done: as §1
With B1, the “pseudovirus neutralization IC50” value is above 10 µg/mL.
On the same count and under the same terms, to B2 belongs above 10 µg/mL.
Same read-out and setting: the same measure for B3: above 10 µg/mL; for B4: above 10 µg/mL.
The same measure, in the same setting: the same measure for B5: above 10 µg/mL.
As to B6, the “pseudovirus neutralization IC50” value is above 10 µg/mL.
Same read-out and setting: the same measure for B7: above 10 µg/mL.
Same read-out and setting: the same measure for B8: above 10 µg/mL; for B9: above 10 µg/mL.
The same measure, in the same setting: to B10 belongs above 10 µg/mL.
Consider B11, for which the “pseudovirus neutralization IC50” value was above 10 µg/mL.
The same measure, in the same setting: the same measure for B12: above 10 µg/mL.
The same measure, in the same setting: the same measure for B13: above 10 µg/mL.

Another assay has as its target SARS-CoV-2 early D614G spike pseudovirus. The description is as above. Here is the method: as §1
For the molecule B1, the “pseudovirus neutralization IC50” value is above 10 µg/mL.
Same read-out and setting: to B2 belongs 1.16 µg/mL; to B3, above 10 µg/mL.
On the same count and under the same terms, the same measure for B4: above 10 µg/mL; for B5: 0.87 µg/mL.
Still for that read-out and setting: the same measure for B6: above 10 µg/mL.
For the molecule B7, the “pseudovirus neutralization IC50” value is above 10 µg/mL.
On the same count and under the same terms, to B8 belongs 0.487 µg/mL; to B9, 3.64 µg/mL; to B11, above 10 µg/mL.
Regarding B12, the “pseudovirus neutralization IC50” value is above 10 µg/mL.
As to B13, the “pseudovirus neutralization IC50” value is above 10 µg/mL.

Values taken from the supplement of paper PMC9931576.
